Laboratory results published in PubChem BioAssay.
The list shows a part of the results, in another mix than the full data. The source made the active and inactive calls. Rule as the data show it, unless noted: active = inhibition above about 25%; inactive = the rest.

Assay: reduced OD of T4-infected AddAB+ E. coli – absorbance, E. coli V3065, T4 phage, triplicate, AddAB inhibitor project, confirmation (AID 488942;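 active = mean inhibition above a set limit taken from the earlier primary screen, cut at about 13% in these data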;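 also: higher means less bacterial growth since AddAB block lets phage replicate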)
Details: E. coli V3065 expressing H. pylori AddAB, at 11.9 µM, hits give high values, T4 phage with gene 2 nonsense mutations
With `O=[N+]([O-])c1cccc2n[nH]nc12` the inhibition was active: 99.8%.
With `CC(=O)NC(SC(=S)N(CC(C)C)CC(C)C)C(Cl)(Cl)Cl` (configuration not stated) the inhibition was active: 33.1%.
For `O=[N+]([O-])c1cc([N+](=O)[O-])c(-c2ccn[nH]2)s1`, the inhibition was active: 94.4%.
In the case of `O=P(Nc1nccs1)(c1ccccc1)c1nc2ccccc2s1` (configuration not stated), the inhibition is reported as inactive: 4.87%.

Assay: reduced OD of phage-infected RecBCD+ V66 E. coli – absorbance, mutant T4 phage, counter-screen for AddAB inhibitor project (AID 488955;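 active = mean inhibition above the mean of solvent-only control wells plus 3 SD, cut at about 4% in these data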;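 also: optical density read after an 18 h incubation at 37 °C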)
Details: OD growth, at 11.9 µM, hits give high values
For `O=[N+]([O-])c1cccc2n[nH]nc12`, the inhibition was active: 13.1%.
For `CC(=O)NC(SC(=S)N(CC(C)C)CC(C)C)C(Cl)(Cl)Cl` (configuration not stated), the inhibition was active: 14%.
For `O=[N+]([O-])c1cc([N+](=O)[O-])c(-c2ccn[nH]2)s1`, the inhibition was active: 18.4%.
For `O=P(Nc1nccs1)(c1ccccc1)c1nc2ccccc2s1` (configuration not stated), the inhibition was inactive: -2.64%.

Assay: bacterial growth inhibitors – absorbance, counter-screen for AddAB inhibitor project, confirmation (AID 488956)
Details: bacterial viability, absorbance (AddAB counterscreen); at 11.9 µM; hits give high values
With `O=[N+]([O-])c1cccc2n[nH]nc12` the inhibition was active: 50.4%.
For `CC(=O)NC(SC(=S)N(CC(C)C)CC(C)C)C(Cl)(Cl)Cl` (configuration not stated), the inhibition was active: 28.1%.
With `O=[N+]([O-])c1cc([N+](=O)[O-])c(-c2ccn[nH]2)s1` the inhibition was active: 40.2%.
In the case of `O=P(Nc1nccs1)(c1ccccc1)c1nc2ccccc2s1` (configuration not stated), the inhibition is reported as inactive: -1.86%.
